Compound potency records, mixed from different reports. Data source: NIAID ChemDB in PubChem.

Shared fields: tests in culture; species: Mycobacterium avium intracellulare

MIC50, MIC90 and the like: level of inhibition, or share of isolates inhibited. An empty or dashed field is not shown. Neighbouring rows are from separate reports.

| compound | strain or isolate | endpoint | method | conditions | result |
|---|---|---|---|---|---|
| CCn1cc(C(=O)O)c(=O)c2cc(F)c(-n3cccc3)cc21 |  | MIC |  |  | 47.2 µg/mL |
| COc1ccc(C2CC(c3ccc4c(c3)OCO4)=Nc3c(N)nc(SC)nc3N2)cc1 | MNT1408 | MIC | MTT / broth dilution / absorbance | clinical isolate | >32 µg/mL |
| CO[C@H]1[C@@H](O)[C@H](n2ccc(=O)[nH]c2=O)O[C@@H]1[C@@H](O[C@H]1OC(C(=O)N[C@H]2CCC[C@@H](C)NC2=O)=C[C@H](O)[C@@H]1O)C(N)=O | 17 isolates | MIC50 |  |  | 2 µg/mL |
| CCn1cc(C(=O)O)c(=O)c2cc(F)c(N3CCNCC3)nc21 | 16 isolates | MIC90 |  |  | >100 µg/mL |
| CC1=CN=C2c3ccccc3C(=O)C3N=CC=C1C23 |  | MIC |  |  | 0.39 µg/mL |
| NNC(=O)c1ccncc1 |  | MBC |  |  | 16 µg/mL |
| NCC[C@H](O)C(=O)N[C@@H]1C[C@H](N)[C@@H](O[C@H]2O[C@H](CN)[C@@H](O)[C@H](O)[C@H]2O)[C@H](O)[C@H]1O[C@H]1O[C@H](CO)[C@@H](O)[C@H](N)[C@H]1O | ATCC 13950 | MIC |  |  | 8 µg/mL |
| NC[C@H]1O[C@H](O[C@H]2[C@H](O)[C@@H](O[C@H]3O[C@H](CO)[C@@H](O)[C@H](N)[C@H]3O)[C@H](N)C[C@@H]2N)[C@H](O)[C@@H](O)[C@@H]1O | N-809 (HIV-) | MIC |  |  | 2 µg/mL |
| CO[C@H]1/C=C/O[C@@]2(C)Oc3c(C)c(O)c4c(O)c(c(/C=N/N5CCN(C)CC5)c(O)c4c3C2=O)NC(=O)/C(C)=C\C=C\[C@H](C)[C@H](O)[C@@H](C)[C@@H](O)[C@@H](C)[C@H](OC(C)=O)[C@@H]1C | CIPT 140310019 | MIC |  |  | 0.05 µg/mL |
| CC1COc2c(N3CCN(C)CC3)c(F)cc3c(=O)c(C(=O)O)cn1c23 | 20 isolates | MIC90 |  |  | 8 µg/mL |
| CC[C@H]1OC(=O)[C@H](C)[C@@H](O[C@H]2C[C@@](C)(OC)[C@@H](O)[C@H](C)O2)[C@H](C)[C@@H](O[C@@H]2O[C@H](C)C[C@H](N(C)C)[C@H]2O)[C@](C)(OC)C[C@@H](C)C(=O)[C@H](C)[C@@H](O)[C@]1(C)O | 20 strains | MIC50 |  |  | 6.25 µg/mL |
| CN1CCN(c2c(F)cc3c(=O)c(C(=O)O)cn4c3c2SCC4)CC1 |  | MIC |  |  | 11.9 µg/mL |
| CO[C@H]1/C=C/O[C@@]2(C)Oc3c(C)c(O)c4c(=O)c(c5oc6cc(N7CCN(CC(C)C)CC7)cc(=O)c6nc5c4c3=C2O)NC(=O)/C(C)=C\C=C\[C@H](C)[C@H](O)[C@@H](C)[C@@H](O)[C@@H](C)[C@H](OC(C)=O)[C@@H]1C | 20 strains | MIC90 |  |  | 0.1 µg/mL |
| Nc1nc(N)c2c(n1)NC(c1ccc3c(c1)OCO3)CC(c1ccccc1)=N2 | MNT1408 | MIC | MTT / broth dilution / absorbance | clinical isolate | >32 µg/mL |
| CN1CCN(c2cc3c(cc2F)c(=O)c(C(=O)O)cn3-c2ccc(F)cc2)CC1 | ATCC 13950 | MIC |  |  | 8 µg/mL |
| C[C@H]1COc2c(N3CCN(C)CC3)c(F)cc3c(=O)c(C(=O)O)cn1c23 | 20 strains | MIC90 |  |  | 25 µg/mL |
| CC[C@@H](C)N1CCN(c2cc(=O)c3nc4c(oc3c2)c2c(=O)c3c(O)c(C)c5c(c34)=C(O)[C@@](C)(O/C=C/[C@H](OC)[C@@H](C)[C@@H](OC(C)=O)[C@H](C)[C@H](O)[C@H](C)[C@@H](O)[C@@H](C)/C=C/C=C(/C)C(=O)N2)O5)CC1 | 31 strains | MIC90 |  |  | 0.1 µg/mL |
| Nc1nc(N)c2c(n1)NC(c1ccc(F)cc1)CC(c1ccc3c(c1)OCO3)=N2 | MNT1408 | MIC | MTT / broth dilution / absorbance | clinical isolate | >32 µg/mL |
| CO[C@H]1/C=C/O[C@@]2(C)Oc3c(C)c(O)c4c(O)c(c(/C=N/N5CCN(C)CC5)c(O)c4c3C2=O)NC(=O)/C(C)=C\C=C\[C@H](C)[C@H](O)[C@@H](C)[C@@H](O)[C@@H](C)[C@H](OC(C)=O)[C@@H]1C | 20 strains | MIC50 |  |  | 3.13 µg/mL |
| CO[C@H]1/C=C/O[C@@]2(C)Oc3c(C)c(O)c4c(O)c(c(/C=N/N5CCN(C)CC5)c(O)c4c3C2=O)NC(=O)/C(C)=C\C=C\[C@H](C)[C@H](O)[C@@H](C)[C@@H](O)[C@@H](C)[C@H](OC(C)=O)[C@@H]1C | 17 isolates | MIC90 |  |  | 0.5 µg/mL |
| CCn1cc(C(=O)O)c(=O)c2cnc(N3CCCC3)nc21 |  | MIC |  |  | >250 µg/mL |
| CC[C@@H](CO)NCCN[C@@H](CC)CO |  | MBC |  |  | 16 µg/mL |
| CNC1CCCN(c2c(F)cc3c(=O)c(C(=O)O)cn(C4CC4)c3c2OC)C1 | 16 isolates | MIC90 |  |  | 50 µg/mL |
| CO[C@H]1/C=C/O[C@@]2(C)Oc3c(C)c(O)c4c(O)c(c5c(c4c3C2=O)NC2(CCN(CC(C)C)CC2)N=5)=NC(=O)/C(C)=C\C=C\[C@H](C)[C@H](O)[C@@H](C)[C@@H](O)[C@@H](C)[C@H](OC(C)=O)[C@@H]1C | 20 isolates | MIC50 |  |  | 0.25 µg/mL |
| NC1CCN(c2c(F)cc3c(=O)c(C(=O)O)cn(C4CC4)c3c2Cl)C1 |  | MIC |  |  | 5 µg/mL |
| NCC[C@H](O)C(=O)N[C@@H]1C[C@H](N)[C@@H](O[C@H]2O[C@H](CN)[C@@H](O)[C@H](O)[C@H]2O)[C@H](O)[C@H]1O[C@H]1O[C@H](CO)[C@@H](O)[C@H](N)[C@H]1O |  | MIC |  |  | 4 µg/mL |
| CC1COc2c(N3CCN(C)CC3)c(F)cc3c(=O)c(C(=O)O)cn1c23 | 95 isolates | MIC50 |  |  | 2 µg/mL |
| CC[C@H]1OC(=O)[C@H](C)[C@@H](O[C@H]2C[C@@](C)(OC)[C@@H](O)[C@H](C)O2)[C@H](C)[C@@H](O[C@@H]2O[C@H](C)C[C@H](N(C)C)[C@H]2O)[C@](C)(OC)C[C@@H](C)C(=O)[C@H](C)[C@@H](O)[C@]1(C)O |  | MBC |  |  | 8 µg/mL |
| CO[C@H]1/C=C/O[C@@]2(C)Oc3c(C)c(O)c4c(O)c(c5c(c4c3C2=O)NC2(CCN(CC(C)C)CC2)N=5)=NC(=O)/C(C)=C\C=C\[C@H](C)[C@H](O)[C@@H](C)[C@@H](O)[C@@H](C)[C@H](OC(C)=O)[C@@H]1C | CDC2 | MIC |  |  | 0.075 µg/mL |
| CN1CCN(c2c(F)cc3c(=O)c(C(=O)O)cn(CCF)c3c2F)CC1 |  | MIC |  |  | 4.7 µg/mL |
| NC1CCN(c2nc3c(cc2F)c(=O)c(C(=O)O)cn3-c2ccc(F)cc2F)C1 | 16 isolates | MIC50 |  |  | >100 µg/mL |
| CC[C@H]1OC(=O)[C@H](C)[C@@H](O[C@H]2C[C@@](C)(OC)[C@@H](O)[C@H](C)O2)[C@H](C)[C@@H](O[C@@H]2O[C@H](C)C[C@H](N(C)C)[C@H]2O)[C@](C)(OC)C[C@@H](C)C(=O)[C@H](C)[C@@H](O)[C@]1(C)O | N-260 | MBC |  |  | 16 µg/mL |
| CCn1cc(C(=O)O)c(=O)c2cc3c(cc21)OCO3 |  | MIC |  |  | 449.3 µg/mL |
| Cc1c(N2C[C@@H](N)C3(CC3)C2)c(F)c(N)c2c(=O)c(C(=O)O)cn(C3CC3)c12 | 20 strains | MIC90 |  |  | 12.5 µg/mL |
| C[C@H]1COc2c(N3CCN(C)CC3)c(F)cc3c(=O)c(C(=O)O)cn1c23 | 16 isolates | MIC50 |  |  | 50 µg/mL |
| CCCN1CCN(c2cc(=O)c3nc4c(oc3c2)c2c(=O)c3c(O)c(C)c5c(c34)=C(O)[C@@](C)(O/C=C/[C@H](OC)[C@@H](C)[C@@H](OC(C)=O)[C@H](C)[C@H](O)[C@H](C)[C@@H](O)[C@@H](C)/C=C/C=C(/C)C(=O)N2)O5)CC1 | 31 strains | MIC90 |  |  | 0.1 µg/mL |
| CCn1nc(C(=O)O)c(=O)c2cc3c(cc21)OCO3 |  | MIC |  |  | >250 µg/mL |
| Cc1c(F)c(N2CCNC(C)C2)cc2c1c(=O)c(C(=O)O)cn2C1CC1 | 16 isolates | MIC90 |  |  | 12.5 µg/mL |

The last 2 rows once more:

compound	strain or isolate	endpoint	method	conditions	result
CCn1nc(C(=O)O)c(=O)c2cc3c(cc21)OCO3		MIC			>250 µg/mL
Cc1c(F)c(N2CCNC(C)C2)cc2c1c(=O)c(C(=O)O)cn2C1CC1	16 isolates	MIC90			12.5 µg/mL